Biological target: Peptidoglycan-N-acetylglucosamine deacetylase (Streptococcus pneumoniae (strain ATCC BAA-255 / R6), UniProt Q8DP63)

Chains of the proteins cited; added tags and fusions are not shown.
UniProt Q8DP63, whole entry, looked up: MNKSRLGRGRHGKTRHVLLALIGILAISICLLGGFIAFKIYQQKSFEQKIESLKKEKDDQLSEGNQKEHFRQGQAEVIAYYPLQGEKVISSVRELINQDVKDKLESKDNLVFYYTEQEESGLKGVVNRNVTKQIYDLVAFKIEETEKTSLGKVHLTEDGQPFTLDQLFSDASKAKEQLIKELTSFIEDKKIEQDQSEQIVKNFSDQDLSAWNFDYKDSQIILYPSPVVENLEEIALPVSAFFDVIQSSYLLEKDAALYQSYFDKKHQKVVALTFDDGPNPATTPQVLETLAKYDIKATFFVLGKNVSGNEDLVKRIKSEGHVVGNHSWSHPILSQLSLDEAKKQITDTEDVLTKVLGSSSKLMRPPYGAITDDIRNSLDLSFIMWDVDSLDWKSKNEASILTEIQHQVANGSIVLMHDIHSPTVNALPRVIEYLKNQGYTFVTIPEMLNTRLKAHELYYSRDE

`CP(=O)(O)N[C@H]1[C@H](OCc2ccccc2)O[C@H](CO)[C@@H](OCc2ccccc2)[C@@H]1O` gave a Ki of 80 µM.
